The source of these data is PMC5682278, “The vaccinia virus DNA polymerase structure provides insights into the mode of processivity factor binding” (2017).

In the test the target is A20 C-ter (last 123 residues of VACV A20) (vaccinia virus (VACV)) (UniProt P20995). Put plainly: SPR. On the technique in general: In SPR one partner is held on a chip, and binding of the other changes the refractive index at the surface.

pKd: −log10 of the molar value.

Turning to “E9-578-582 (Leu578Ala + Ile582Ala) (from UniProt P20509 1-1006) (enzyme)”, the pKd (as a rule, the negative decadic logarithm of the Kd, by convention in mol/L) was 6.41.
